{"source": "patent US20050124638A1", "about": "“Benzimidazoles and analogs thereof as antivirals” (priority 2003, published 2005)", "key": {"[1]": {"test_system": "HCV IRES stem IIa RNA target", "assay": "Mass spectrometry based binding assay", "conditions": "read-out: Kd to IIa target; Table 8"}, "[2]": {"test_system": "HCV RNA levels in Ntat2ANeo replicon containing cell line", "assay": "Replicon assay (Ntat2ANeo replicon cells, quantitative RT-PCR of HCV RNA)", "assay_type": "cell-based", "conditions": "read-out: Replicon IC50; Table 8"}}, "data": [{"smiles": "CN(C)CCCn1c(N)nc2ccc3c(c21)CC(CN(C)C)O3", "note": "(centres unmarked) [IBIS00560047]", "values": [{"measurement": "Kd", "setting": "[1]", "result": 2100, "unit": "nM"}, {"measurement": "IC50", "setting": "[2]", "result": 1500, "unit": "nM"}]}]}
